Measured values from several laboratories, pooled; numbers as filed in NIAID ChemDB.

All rows: growth or infection tests; organism: Cryptosporidium parvum; read-out: inhibition

Conditions beyond the fields shown may differ between rows.

{"compound": "CC(C)[C@H](NC(=O)[C@H](CCCN=C(N)N)NC(=O)N[C@@H](Cc1ccccc1)C(=O)O)C(=O)N[C@H](C=O)CCCN=C(N)N", "method": "cell count / microscopy", "tested at": "10 µg/mL", "result": "46.9%"}
{"compound": "O=C(C[C@H]1NCCC[C@@H]1O)Cn1cnc2cc(Br)c(Cl)cc2c1=O", "strain or isolate": "Calf isolate", "tested at": "0.8 µg/mL", "cell line": "L929", "result": "89.47%"}
{"compound": "Cc1c(N)nc([C@H](CC(N)=O)NC[C@H](N)C(N)=O)nc1C(=O)N[C@H](C(=O)N[C@H](C)[C@@H](O)[C@H](C)C(=O)N[C@H](C(=O)NCCc1nc(-c2nc(C(=O)NCCC[S+](C)C)cs2)cs1)[C@@H](C)O)C(O[C@@H]1O[C@@H](CO)[C@@H](O)[C@H](O)[C@@H]1O[C@H]1O[C@H](CO)[C@@H](O)[C@H](OC(N)=O)[C@@H]1O)c1cnc[nH]1", "tested at": "1 µM", "cell line": "HCT-8", "result": "0%"}
{"compound": "CCCCc1cc2c(=O)c(C(=O)OC)c[nH]c2cc1OCc1ccccc1", "strain or isolate": "Calf isolate", "tested at": "20 µg/mL", "cell line": "L929", "result": "37%"}
{"compound": "CC(C)(C)NC(=O)[C@@H]1C[C@@H]2CCCC[C@@H]2CN1C[C@@H](O)[C@H](Cc1ccccc1)NC(=O)[C@H](CC(N)=O)NC(=O)c1ccc2ccccc2n1", "tested at": "2.5 µg/mL", "cell line": "HCT-8", "result": "<5%"}
{"compound": "N/C(=N\\N=C\\c1ccc(Cl)cc1)N/N=C/c1ccc(Cl)cc1", "strain or isolate": "Human isolate", "tested at": "20 µg/mL", "cell line": "L929", "result": "7.54%"}
{"compound": "CO[C@@]12[C@H](COC(N)=O)C3=C(C(=O)C(C)=C(N)C3=O)N1C[C@@H]1N[C@@H]12", "tested at": "1 µM", "cell line": "HCT-8", "result": "67%"}
{"compound": "O=c1[nH]c(=O)n([C@H]2C[C@H](O)[C@@H](CO)O2)cc1/C=C/Br", "tested at": "10 µg/mL", "result": "12%"}
{"compound": "CC(C)N=C(N)/N=C(\\N)Nc1ccc(Cl)cc1", "strain or isolate": "Calf isolate", "tested at": "4 µg/mL", "cell line": "L929", "result": "5%"}
{"compound": "O=c1[nH]c(=O)n([C@H]2C[C@H](O)[C@@H](CO)O2)cc1I", "tested at": "2 µg/mL", "result": "75%"}
{"compound": "CC(=O)N[C@@H](CC(C)C)C(=O)N[C@@H](CC(C)C)C(=O)N[C@H](C=O)CCCN=C(N)N", "tested at": "5 µg/mL", "result": "10.9%"}
{"compound": "Cc1cn([C@H]2C[C@H](N=[N+]=[N-])[C@@H](CO)O2)c(=O)[nH]c1=O", "strain or isolate": "Calf isolate", "tested at": "4 µg/mL", "cell line": "L929", "result": "-2.56%"}
{"compound": "Nc1ccn([C@@H]2O[C@H](CO)[C@@H](O)[C@@H]2O)c(=O)n1", "tested at": "10 µg/mL", "result": "90%"}
{"compound": "Cc1c(O)cccc1C(=O)N[C@@H](CSc1ccccc1)[C@H](O)CN1C[C@H]2CCCC[C@H]2C[C@H]1C(=O)NC(C)(C)C", "tested at": "10 µg/mL", "cell line": "HCT-8", "result": "20%"}
{"compound": "Nc1ncnc2c1ncn2[C@@H]1O[C@H](CO)[C@@H](O)[C@@H]1O", "tested at": "50 µg/mL", "result": "12%"}
{"compound": "CC[C@@]1([C@@H]2O[C@@H]([C@H]3O[C@@](O)(CO)[C@H](C)C[C@@H]3C)C[C@@H]2C)CC[C@H]([C@]2(C)CC[C@]3(C[C@H](O)[C@@H](C)[C@@H]([C@@H](C)[C@@H](OC)[C@H](C)C(=O)O)O3)O2)O1", "tested at": "1 µM", "cell line": "HCT-8", "result": "100%"}
{"compound": "Cc1cn([C@H]2C[C@H](N=[N+]=[N-])[C@@H](CO)O2)c(=O)[nH]c1=O", "tested at": "100 µg/mL", "result": "13%"}
{"compound": "C[C@H]1[C@H](O)[C@@H](C)/C=C/C=C/C=C/C=C/C=C/C=C/C=C/[C@H](O[C@@H]2O[C@H](C)[C@@H](O)[C@H](N)[C@@H]2O)C[C@@H]2O[C@](O)(C[C@@H](O)C[C@@H](O)CC[C@H](O)[C@@H](O)C[C@@H](O)CC(=O)O[C@H]1C)C[C@H](O)[C@H]2C(=O)O", "strain or isolate": "Calf isolate", "tested at": "0.8 µg/mL", "cell line": "L929", "result": "-18.52%"}
{"compound": "NC[C@@H]1O[C@H](O[C@H]2[C@@H](O)[C@H](O[C@@H]3[C@@H](O)[C@H](N)C[C@H](N)[C@H]3O[C@H]3O[C@H](CO)[C@@H](O)[C@H](O)[C@H]3N)O[C@@H]2CO)[C@H](N)[C@@H](O)[C@@H]1O", "tested at": "50 µg/mL", "result": "37%"}
{"compound": "C[C@H]1c2cccc(O)c2C(O)=C2C(=O)[C@]3(O)C(O)=C(C(N)=O)C(=O)[C@@H](N(C)C)[C@@H]3[C@@H](O)[C@@H]21", "tested at": "1 µM", "cell line": "HCT-8", "result": "0%"}
{"compound": "CC1(C)N=C(N)N=C(N)N1c1ccc(Cl)cc1", "strain or isolate": "Calf isolate", "tested at": "0.032 µg/mL", "cell line": "L929", "result": "16.95%"}
{"compound": "O=c1[nH]c(=O)n([C@H]2C[C@H](O)[C@@H](CO)O2)cc1C(F)(F)F", "tested at": "10 µg/mL", "result": "84%"}

A second listing of 2 rows from above:

C[C@H]1c2cccc(O)c2C(O)=C2C(=O)[C@]3(O)C(O)=C(C(N)=O)C(=O)[C@@H](N(C)C)[C@@H]3[C@@H](O)[C@@H]21 ; tested at: 1 µM ; cell line: HCT-8 ; result: 0%
O=c1[nH]c(=O)n([C@H]2C[C@H](O)[C@@H](CO)O2)cc1I ; tested at: 2 µg/mL ; result: 75%

Inhibition is in % at the dose shown (toxicity tests: loss of growth or viability).